A mixed list of measured activities; the numbers were collected in NIAID ChemDB.

Shared fields: toxicity to cultured cells; cells: MT-4; endpoint: CC50

An empty or dashed field is not shown. Lines come from different laboratories, so protocols vary. CCn: concentration that lowers growth or viability of the cells by n%.

structure	method	value
NCCCCN1CCCN(CCCCN)CCN(CCCCN)CCCN(CCCCN)CC1	-	50 µM
CC(C)[C@H](NC(=O)NCc1ccccn1)C(=O)N[C@@H](Cc1ccccc1)C(=O)C(F)(F)CCc1ccccc1	-	>100 µM
CCCCCCCCCC(=O)O[C@@H]1[C@@H](C)[C@@]2(O)C(C=C(CO)C[C@]3(O)C(=O)C(C)=CC23)C2C(C)(C)[C@@]21OC(=O)C(C)CC	-	>31.3 µg/mL
Cc1cn([C@@H]2O[C@H](CO[Si](C)(C)C(C)(C)C)C3(OC(=O)N=C3N)[C@H]2O[Si](C)(C)C(C)(C)C)c(=O)[nH]c1=O	-	77 µM
O=C(CCNC(=O)C(=O)/C=C(\O)c1cccn1Cc1ccc(F)cc1)OC[C@@H]1CC[C@H](n2ccc(=O)[nH]c2=O)O1	MTT	>10 µM
O=c1[nH]c(=O)n([C@H]2C[C@H](F)[C@@H](CO)O2)cc1Cl	-	490 µM
O=C(NCCCCN1CCCN(CCCCNC(=O)OCc2ccccc2)CCN(CCCCNC(=O)OCc2ccccc2)CCCN(CCCCNC(=O)OCc2ccccc2)CC1)OCc1ccccc1	-	10 µM
CC1=NO[C@@]2(CC[C@H](C)N3C[C@H]2n2cc(C(=O)NCc4ccc(F)cc4F)c(=O)c(OCOC(=O)N4CC[C@H]4COP(=O)(O)O)c2C3=O)C1	luminescence	39 µM
CC(=O)OC[C@H]1O[C@@H](SCCOP(=O)(OCS[C@@H]2O[C@H](COC(C)=O)[C@@H](OC(C)=O)[C@H](OC(C)=O)[C@H]2OC(C)=O)OC[C@H]2O[C@@H](n3cc(C)c(=O)[nH]c3=O)C[C@@H]2N=[N+]=[N-])[C@H](OC(C)=O)[C@@H](OC(C)=O)[C@@H]1OC(C)=O	-	>10 µM
Cc1cn([C@H]2C=C[C@@H](COC(=O)CCNC(=O)C(=O)/C=C(\O)c3cccn3Cc3ccc(F)cc3)O2)c(=O)[nH]c1=O	MTT	>10 µM
CC(C)=CCc1c(O)cc2occ(-c3ccc4c(c3O)C=CC(C)(C)O4)c(=O)c2c1O	-	6 µg/mL
c1cc(CN2CCCNCCNCCCNCC2)ccc1CN1CCCNCCNCCCNCC1	-	>300 µM
Cc1cn([C@@H]2O[C@H](CO[Si](C)(C)C(C)(C)C)C3(OC(=O)N(C)C3=N)[C@H]2O[Si](C)(C)C(C)(C)C)c(=O)n(C)c1=O	-	≥175 µM
C[C@H](CC(=O)C[C@@H](C)[C@H]1CC(=O)[C@@]2(C)C3=C(C(=O)C[C@]12C)[C@@]1(C)CCC(=O)C(C)(C)[C@@H]1C[C@@H]3O)C(=O)O	-	>1000 µM
C=C(/C=C/P(=O)(O)O)Cn1cnc2c(=O)[nH]c(N)nc21	MTT	>1000 µM
O=C(NCCCCN1CCCN(CCCCNC(=O)OCc2ccccc2)CCCN(CCCCNC(=O)OCc2ccccc2)CCN(CCCCNC(=O)OCc2ccccc2)CCC1)OCc1ccccc1	-	50 µM
Cc1cn([C@H]2C[C@H](N=[N+]=[N-])[C@@H](CO)O2)c(=O)[nH]c1=O	MTT	3.7 µM
CC(=O)OC[C@H]1O[C@@H](SCCOP(=O)(OCCS[C@@H]2O[C@H](CO)[C@@H](O)[C@H](O)[C@H]2O)OC[C@H]2O[C@@H](n3cc(C)c(=O)[nH]c3=O)C[C@@H]2N=[N+]=[N-])[C@H](OC(C)=O)[C@@H](OC(C)=O)[C@@H]1OC(C)=O	-	>10 µM
CC(=O)OCC1=C[C@H]2[C@@H]3C(C)(C)[C@]3(OC(C)=O)[C@H](OC(C)=O)[C@@H](C)[C@]2(O)[C@@H]2C=C(C)C(=O)[C@]2(O)C1	-	>500 µg/mL
O=C(CNC(=O)C(=O)/C=C(\O)c1cccn1Cc1ccc(F)cc1)OC[C@@H]1CC[C@H](n2ccc(=O)[nH]c2=O)O1	MTT	>10 µM
CCCCCCCCCCCCCC(=O)OCc1ccccc1C(=O)Oc1c2n(cc(C(=O)NCc3ccc(F)cc3F)c1=O)[C@@H]1CN(C2=O)[C@@H](C)CC[C@]12CC(C)=NO2	luminescence	50 µM
CC(C)=CCN1Cc2cccc3[nH]c(=S)n(c23)C[C@@H]1C	-	>350 µM
CC(C)[C@@H](C)/C=C/[C@@H](C)[C@H]1CCC2[C@@]34C=C[C@]5(C[C@@H](O)CC[C@]5(C)C3CC[C@@]21C)OO4	-	15.6 µM
Cc1cn([C@H]2C[C@H](N=[N+]=[N-])[C@@H](COP(=O)(OCCS[C@@H]3O[C@H](CO)[C@@H](O)[C@H](O)[C@H]3O)OCCS[C@@H]3O[C@H](CO)[C@@H](O)[C@H](O)[C@H]3O)O2)c(=O)[nH]c1=O	-	>10 µM
CC(=O)O[C@@H]1C(=O)C2=C(C(=O)C[C@H]3C(C)(C)[C@@H](O)CC[C@]23C)[C@]2(C)C(=O)C[C@H]([C@@H](C)CC(=O)C[C@@H](C)C(=O)O)[C@@]12C	-	>1000 µM
Cc1cn([C@H]2C[C@H](N=[N+]=[N-])[C@@H](CO)O2)c(=O)[nH]c1=O	MTT	113 µM
COc1cc([C@H]2c3c(cc(OC)c(OC)c3OC)C[C@@H](C)[C@@H]2C)cc(C)c1OC	-	34 µM
CC(=O)O[C@@]12[C@H](O)[C@@H](C)[C@@]3(O)[C@@H](C=C(CO)C[C@@]4(O)C(=O)C(C)=C[C@@H]34)[C@@H]1C2(C)C	-	>1000 µg/mL
Cc1c(Cc2c(F)cccc2F)nc(Sc2ccc(Cl)cc2)[nH]c1=O	MTT	>66.1 µM
C/C=C(/C)C(=O)O[C@]12C(C3C=C(CO)C[C@]4(O)C(=O)C(C)=CC4[C@@]3(O)[C@H](C)[C@H]1OC(C)=O)C2(C)C	-	>500 µg/mL
Cc1cn([C@H]2C[C@H](N=[N+]=[N-])[C@@H](CO)O2)c(=O)[nH]c1=O	MTT	>10 µM
NCCCN1CCCN(CCCN)CCN(CCCN)CCCN(CCCN)CC1	-	50 µM
Cc1c(Cc2c(F)cccc2F)nc(Sc2ccccc2)[nH]c1=O	MTT	>72.7 µM
O=C(NCCCCCN1CCCN(CCCCCNC(=O)OCc2ccccc2)CCCN(CCCCCNC(=O)OCc2ccccc2)CCN(CCCCCNC(=O)OCc2ccccc2)CCC1)OCc1ccccc1	-	1 µM
CC(C)=CCc1cc(C2CC(=O)c3ccc(O)c(CC=C(C)C)c3O2)ccc1O	-	>100 µg/mL
O=C(CCNC(=O)C(=O)/C=C(\O)c1cccn1Cc1ccc(F)cc1)OC[C@@H]1C=C[C@H](n2ccc(=O)[nH]c2=O)O1	MTT	>10 µM
O=c1[nH]cnc2c1ncn2[C@H]1CC[C@@H](CO)O1	-	>100 µM
O=C(NCCCCCCN1CCCN(CCCCCCNC(=O)OCc2ccccc2)CCCN(CCCCCCNC(=O)OCc2ccccc2)CCN(CCCCCCNC(=O)OCc2ccccc2)CCC1)OCc1ccccc1	-	1 µM
CC1=NO[C@@]2(CC[C@H](C)N3C[C@H]2n2cc(C(=O)NCc4ccc(F)cc4F)c(=O)c(OCOC(=O)N4CCOC[C@@H]4COP(=O)(O)O)c2C3=O)C1	luminescence	50 µM
COc1c(-c2ccc(O)c(O)c2)oc2c(CC=C(C)C)c(O)c(CC=C(C)C)c(O)c2c1=O	-	>200 µg/mL
Cc1c(Cc2c(Cl)cccc2Cl)nc(Sc2ccc(F)cc2F)[nH]c1=O	MTT	>60.5 µM
CC(=O)OC1C(=O)C2=C(C(=O)CC3C(C)(C)[C@@H](O)CC[C@]23C)[C@]2(C)[C@H](O)C[C@H]([C@H](C)CC(=O)CC(C)C(=O)O)[C@@]12C	-	>1000 µM
CC1=NO[C@@]2(CC[C@H](C)N3C[C@H]2n2cc(C(=O)NCc4ccc(F)cc4F)c(=O)c(OCOC(=O)N(C)Cc4ccc(OP(=O)(O)O)cc4)c2C3=O)C1	luminescence	50 µM
O=C(NCCCN1CCCN(CCCNC(=O)OCc2ccccc2)CCN(CCCNC(=O)OCc2ccccc2)CCCN(CCCNC(=O)OCc2ccccc2)CC1)OCc1ccccc1	-	50 µM
Cc1cn([C@H]2C[C@H](N=[N+]=[N-])[C@@H](CO)O2)c(=O)[nH]c1=O	-	>100 µM
CC(C)C(C)/C=C/[C@@H](C)[C@H]1CCC2C3=C[C@@H](O)[C@@]4(O)C[C@@H](O)CC[C@]4(C)C3CC[C@@]21C	-	15.6 µM
CC1=NO[C@@]2(CC[C@H](C)N3C[C@H]2n2cc(C(=O)NCc4ccc(F)cc4F)c(=O)c(OCOC(=O)OCC4(COP(=O)(O)O)CCC4)c2C3=O)C1	luminescence	15.1 µM
CC(C)=CCc1c(O)ccc(C(=O)/C=C/c2cc(O)c3c(c2)C=CC(C)(C)O3)c1O	-	12 µg/mL
COc1ccc(Sc2nc(Cc3c(F)cccc3F)c(C)c(=O)[nH]2)cc1	MTT	57.5 µM
NCCCN1CCCN(CCCN)CCCN(CCCN)CCN(CCCN)CCC1	-	>50 µM
CCCCCCCCCCCCCC(=O)Oc1ccc(C(=O)Oc2c3n(cc(C(=O)NCc4ccc(F)cc4F)c2=O)[C@@H]2CN(C3=O)[C@@H](C)CC[C@]23CC(OC)=NO3)cc1	luminescence	50 µM

Repeating the first 5 entries:

structure,method,value
NCCCCN1CCCN(CCCCN)CCN(CCCCN)CCCN(CCCCN)CC1,-,50 µM
CC(C)[C@H](NC(=O)NCc1ccccn1)C(=O)N[C@@H](Cc1ccccc1)C(=O)C(F)(F)CCc1ccccc1,-,>100 µM
CCCCCCCCCC(=O)O[C@@H]1[C@@H](C)[C@@]2(O)C(C=C(CO)C[C@]3(O)C(=O)C(C)=CC23)C2C(C)(C)[C@@]21OC(=O)C(C)CC,-,>31.3 µg/mL
Cc1cn([C@@H]2O[C@H](CO[Si](C)(C)C(C)(C)C)C3(OC(=O)N=C3N)[C@H]2O[Si](C)(C)C(C)(C)C)c(=O)[nH]c1=O,-,77 µM
O=C(CCNC(=O)C(=O)/C=C(\O)c1cccn1Cc1ccc(F)cc1)OC[C@@H]1CC[C@H](n2ccc(=O)[nH]c2=O)O1,MTT,>10 µM